This passage reports absorbance results from patent EP1161455B1.

Assay [1] has as its target gp120 (IIIB isolate), free (HIV-1 (IIIB isolate)) (UniProt P03375). Briefly: ELISA; sCD4-17b captured on anti-His tag MAb; free gp120 added, detected with polyclonal anti-gp120 antiserum and anti-rabbit IgG-HRP; control buffer gave 0.05.
The target of assay [2] is gp120 (IIIB isolate) complexed to sCD4 (HIV-1 (IIIB isolate)) (UniProt P03375). The experiment in a line: ELISA; sCD4-17b captured on anti-CD4 MAb 13B8.2; gp120 (IIIB)/sCD4 complex added, detected with polyclonal anti-gp120 antiserum and anti-rabbit IgG-HRP; control buffer gave 0.05.

Take “sCD4-SCFv(17b) bispecific fusion protein”: the absorbance at 405 nm (absorbance (405 nm)) in assay [1] worked out at 0.46; in assay [2], 0.15.
